Results of unrelated studies side by side (data: NIAID ChemDB).

Common to all: whole-cell or culture tests; organism: Candida albicans

Conditions beyond the fields shown may differ between rows. An empty or dashed field is not shown. A number after MIC or MFC names an inhibition level or a share of isolates.

SMILES,endpoint,method,strain or isolate,conditions,value
CCn1c2ccccc2c2cnn(C)c(=O)c21,MIC,broth dilution,-,-,250 µg/mL
O=c1[nH]n2c(C3CC(c4ccccc4)=NN3c3ccccc3)nnc2c2ccccc12,MIC,-,-,-,50 µg/mL
O=C1C=CC(=O)N1CCN1CCOCC1,MIC80,broth dilution,ATCC 10231,-,128 µg/mL
ON=C1CC(c2ccc(Cl)cc2)N(OCCc2nc3ccccc3o2)C(c2ccc(Cl)cc2)C1,MIC,-,-,-,50 µg/mL
COc1cc(C2C(Cl)C(=O)N2NC(=O)c2cnc3c(ccc4[nH]c(Cl)cc(C)c43)c2=O)ccc1O,MIC,broth dilution,-,-,1000 µg/mL
Cc1cc2[nH]c3cc4c(=O)[nH]n(-c5ccccc5)c(=O)c4cc3c2cc1C,MIC100,agar,Clinical isolates,-,64 µg/mL
CC(C)(C)c1ccc(COC(Cn2ccnc2)c2ccccc2)cc1,MIC,-,CA7,-,128 µg/mL
C=C1CC[C@H]2C[C@@H]1C2(C)C,MIC,agar diffusion / agar,ATCC 10231,-,>20000 µg/mL
Cc1ccc(-n2ncc3c4ccccc4n(C)c3c2=O)cc1C,MIC,broth dilution,-,-,250 µg/mL
Cc1ccc(C2=NN(c3ccccc3)C(c3nnc4c5ccccc5c(=O)[nH]n34)C2)cc1,MIC,-,-,-,>200 µg/mL
COc1ccc(N2C(=O)C=CC2=O)cc1,MIC80,broth dilution,ATCC 10231,-,2 µg/mL
COc1cc(C=NNC(=O)c2cnc3c(ccc4[nH]c(Cl)cc(C)c43)c2=O)ccc1O,MIC,broth dilution,-,-,250 µg/mL
CC1CCC/C(=N\Nc2nc(-c3ccccc3)cs2)CC1,MFC,-,-,-,25 µg/mL
CCCCCCCCOc1ccc(N2CCN(c3ccc(C(=O)N[C@H]4CCCNC(=O)C5C[C@H](N)CN5C(=O)C(C(C)O)NC(=O)C(Cc5ccc(CO)cc5)NC(=O)C5CCCN5C(=O)C(C(C)O)NC4=O)cc3)CC2)cc1,MIC,-,ATCC CCH442,-,1.56 µg/mL
CCCSc1ccc2nc(NC(=O)OC)[nH]c2c1,MIC,-,92-343,24 h,5 µg/mL
N/C(=N/N=C1CCCC1)SCc1ccccc1Cl,MFC,-,-,-,>200 µg/mL
O=C1C=CC(=O)N1C1CCCCC1,MIC80,broth dilution,ATCC 10231,-,1 µg/mL
Cn1c2ccccc2c2c(N)n[nH]c(=O)c21,MIC,broth dilution,-,-,250 µg/mL
O=CN1N=C(c2ccccc2)CC1c1nnc2c3ccccc3c(=O)[nH]n12,MIC,-,-,-,100 µg/mL
O=c1[nH]n(-c2ccccc2)c(=O)c2cc3c(cc12)[nH]c1cc2c(=O)[nH]n(-c4ccccc4)c(=O)c2cc13,MIC100,agar,Clinical isolates,-,32 µg/mL
Cn1c2ccccc2c2cn[nH]c(=O)c21,MIC,broth dilution,-,-,250 µg/mL
Cc1ccc(C(Cn2ccnc2)OCc2ccc(C(C)(C)C)cc2)cc1,MIC,-,5M,-,>128 µg/mL
Cc1ccc(-c2cc(-c3nnc4c5ccccc5c(=O)[nH]n34)on2)cc1,MIC,-,-,-,12.5 µg/mL
O=c1[nH]ncc2c1[nH]c1ccccc12,MIC,broth dilution,-,-,250 µg/mL
Cc1cc(Cl)[nH]c2ccc3c(=O)c(C(=O)NN4C(=O)C(Cl)C4c4cc([N+](=O)[O-])ccc4O)cnc3c12,MIC,broth dilution,-,-,250 µg/mL
CCCCCc1ccc(C(=O)N[C@H]2CCCNC(=O)C3C[C@H](N)CN3C(=O)C(C(C)O)NC(=O)C(CCc3ccc(O)cc3)NC(=O)C3C[C@@H](O)CN3C(=O)C(C(C)O)NC2=O)cc1,MIC,-,ATCC 10231,-,25 µg/mL
CCC(=O)N1N=C(c2ccc(C)cc2)CC1c1nnc2c3ccccc3c(=O)[nH]n12,MIC,-,-,-,>200 µg/mL
N/C(=N/N=C1CCCCCC1)SCc1ccccc1,MFC,-,-,-,>200 µg/mL
CCCCCOc1ccc(-c2ccc(-c3ccc(C(=O)N[C@H]4C[C@@H](O)[C@@H](O)NC(=O)[C@@H]5[C@@H](O)[C@@H](C)CN5C(=O)[C@H]([C@H](C)O)NC(=O)[C@H]([C@H](O)[C@@H](O)c5ccc(O)cc5)NC(=O)[C@@H]5C[C@@H](O)CN5C(=O)[C@H]([C@H](C)O)NC4=O)cc3)cc2)cc1,MIC,-,Y180,-,0.04 µg/mL
CC(O)C1NC(=O)C(CCc2ccc(O)cc2)NC(=O)C2C[C@@H](O)CN2C(=O)C(C(C)O)NC(=O)[C@@H](NC(=O)c2ccc(N3CCN(c4ccc(O)cc4)CC3)cc2)CCCNC(=O)C2C[C@H](N)CN2C1=O,MIC,-,ATCC 62376,-,25 µg/mL
C(=C\c1ccccc1)/COC(Cn1ccnc1)c1ccccc1,MIC,-,3M,-,64 µg/mL
O=c1[nH]n(-c2ccccc2)c(=O)c2cc3c(cc12)[nH]c1ccc([N+](=O)[O-])cc13,MIC100,agar,Clinical isolates,-,32 µg/mL
c1ccc(-c2csc(NN=C3CCCCCCCC3)n2)cc1,MIC,-,-,-,>100 µg/mL
Cc1cc(C)c(N2C(=O)C=CC2=O)c(C)c1,MIC80,broth dilution,ATCC 10231,-,2 µg/mL
Cc1cc(Cl)[nH]c2ccc3c(=O)c(C(=O)NN4C(=O)C(Cl)C4c4cccc([N+](=O)[O-])c4O)cnc3c12,MIC,broth dilution,-,-,500 µg/mL
COc1ccc(C2CC(=NO)CC(c3ccc(OC)cc3)N2OCCc2nc3ccccc3o2)cc1,MIC,-,-,-,50 µg/mL
Cc1ccc(C2=NNC(c3nnc4c5ccccc5c(=O)[nH]n34)C2)cc1,MIC,-,-,-,>200 µg/mL
N/C(=N/N=C1CCCCCC1)SCc1cccc(Cl)c1,MFC,-,-,-,>200 µg/mL
CCCCCOc1ccc(-c2ccc(-c3ccc(C(=O)N[C@H]4CCCNC(=O)C5C[C@H](NCCN)CN5C(=O)C(C(C)O)NC(=O)C(CCc5ccc(O)cc5)NC(=O)C5C[C@@H](O)CN5C(=O)C(C(C)O)NC4=O)cc3)cc2)cc1,MIC,-,ATCC 62376,-,0.39 µg/mL
OC(c1cc(-c2ccccc2)nc2c(Cl)cc(Cl)cc12)C1CCCCN1,MIC,-,ATCC 90028,-,2.5 µg/mL
Cn1ncc2c([nH]c3ccccc32)c1=O,MIC,broth dilution,-,-,250 µg/mL
C[C@@H](N1CCc2nc(-c3ccco3)sc2C1)[C@](O)(C[n+]1cnc[nH]1)c1ccc(F)cc1F,MIC,-,SC5314,-,0.25 µg/mL
OC(c1cc(C2CC3CCC2CC3)nc2c(Cl)cc(Cl)cc12)C1CCCCN1,MIC,-,ATCC 90028,-,1.5 µg/mL
CCOC(=O)c1c(C=O)c2ccccc2n1C,MIC,broth dilution,-,-,250 µg/mL
Clc1ccc(C(Cn2ccnc2)OCc2cccc3ccccc23)c(Cl)c1,MIC,-,Y0109,-,1 µg/mL
COc1ccc(C2C(Cl)C(=O)N2NC(=O)c2cnc3c(ccc4[nH]c(Cl)cc(C)c43)c2=O)cc1,MIC,broth dilution,-,-,500 µg/mL
ON=C1CC(c2ccc(Cl)cc2)N(OCCc2nc3ccccc3[nH]2)C(c2ccc(Cl)cc2)C1,MIC,-,-,-,12.5 µg/mL
c1ccc(-c2csc(NN=C3CCCC3)n2)cc1,MIC,-,-,-,3.12 µg/mL
Cc1ccc(C(Cn2ccnc2)OCc2ccc(-c3ccccc3)cc2)cc1,MIC,-,CA6,-,128 µg/mL
C[C@H]1[C@H](O)[C@@H](C)/C=C/C=C/C=C/C=C/C=C/C=C/C=C/[C@H](O[C@@H]2O[C@H](C)[C@@H](O)[C@H](N)[C@@H]2O)C[C@@H]2O[C@](O)(C[C@@H](O)C[C@@H](O)CC[C@H](O)[C@@H](O)C[C@@H](O)CC(=O)O[C@H]1C)C[C@H](O)[C@H]2C(=O)O,MIC,broth dilution,SC5314,-,1 µg/mL
c1ccc(C(Cn2ccnc2)OCc2cccc3ccccc23)cc1,MIC,-,CA2,-,128 µg/mL
CCOC(=O)c1c(C=O)c2ccccc2n1CC,MIC,broth dilution,-,-,250 µg/mL
Cc1ccc(C2=CC(c3nnc4c5ccccc5c(=O)[nH]n34)=C(C#N)/C(=C/C#N)N2)cc1,MIC,-,-,-,>200 µg/mL
CCCCCOc1ccc(-c2ccc(-c3ccc(C(=O)N[C@H]4CCCNC(=O)C5C[C@H](N=[N+]=[N-])N5C(=O)C(C(C)O)NC(=O)C(CCc5ccc(O)cc5)NC(=O)C5C[C@@H](O)CN5C(=O)C(C(C)O)NC4=O)cc3)cc2)cc1,MIC,-,ATCC 10231,-,0.78 µg/mL
N/C(=N/N=C1CCCCCC1)SCc1ccccc1Cl,MFC,-,-,-,>200 µg/mL
CN(C)c1ccc2[nH]c3cc4c(=O)[nH]n(-c5ccccc5)c(=O)c4cc3c2c1,MIC100,agar,Clinical isolates,-,>512 µg/mL
c1ccc(-c2ccc(COC(Cn3ccnc3)c3ccccc3)cc2)cc1,MIC,-,CDCB385,-,128 µg/mL
C=C1CC[C@@H]2C[C@H]1C2(C)C,MIC,agar diffusion / agar,ATCC 10231,-,187 µg/mL

A second listing of 4 rows from above:

| SMILES | endpoint | method | strain or isolate | conditions | value |
|---|---|---|---|---|---|
| CCCCCCCCOc1ccc(N2CCN(c3ccc(C(=O)N[C@H]4CCCNC(=O)C5C[C@H](N)CN5C(=O)C(C(C)O)NC(=O)C(Cc5ccc(CO)cc5)NC(=O)C5CCCN5C(=O)C(C(C)O)NC4=O)cc3)CC2)cc1 | MIC | - | ATCC CCH442 | - | 1.56 µg/mL |
| Cc1ccc(C(Cn2ccnc2)OCc2ccc(-c3ccccc3)cc2)cc1 | MIC | - | CA6 | - | 128 µg/mL |
| COc1cc(C=NNC(=O)c2cnc3c(ccc4[nH]c(Cl)cc(C)c43)c2=O)ccc1O | MIC | broth dilution | - | - | 250 µg/mL |
| COc1ccc(C2CC(=NO)CC(c3ccc(OC)cc3)N2OCCc2nc3ccccc3o2)cc1 | MIC | - | - | - | 50 µg/mL |